Values joined by “and” are separate entries in the source; they are usually repeats but may differ in a detail not shown here. Identical values can stand only once.
Molecular target: Alpha-hemolysin (Hla), recombinant wild type (S. aureus 8325-4, UniProt Q2G1X0)
Settings: both partners purified

B1: YG1 human anti-Hla monoclonal antibody (antibody, V domains shown)
VH: QVQLVQSGAEMQKPGASVKVSCKVTGYALASLSLHWVRQTPGAGLEWLGGLDPGHGETIYAEKLQGRVVMTGDTSTDTAYMQLSSLTSEDTAIYYCASDWLRHGFEFWGQGTTVTVSS
VL: EIVLTQSPATLSVSPGDGATLSCRASQSVSGNLAWYQKKPGQAPRLLIYDTSIRAAGVPPRFSGSGSGTEFTLTISSLQSEDFAVYYCQQYHNLPPLTFGPGTKLEIK
notes: also called YG1 mAb; source: expressed and purified as a full-length human IgG1 antibody
  Kd: 2.95 nM and 1.92 nM and 2.98 nM and 2.6 nM
  koff: 0.000255 s⁻¹ and 0.000271 s⁻¹ and 0.000274 s⁻¹
  kon: 133000 M⁻¹ s⁻¹ and 91200 M⁻¹ s⁻¹ and 92600 M⁻¹ s⁻¹
